The test system of the data set is Nc1ncnc2c1ncn2[C@@H]1O[C@H](COP(=O)(O)OP(=O)(O)OP(=O)(O)O)[C@@H](O)[C@H]1O. In words: purified protein. The conditions noted are these: pH 7.5; 25.0 °C.

In general, Km refers to the substrate concentration at which the rate is half of its maximum.

In the case of “Lpg2603 10-C (Legionella pneumophila subsp. pneumophila str. Philadelphia 1)”, the Km is 18.09 µM.

Values taken from article doi:10.1101/2020.02.18.954925v1 (biorxiv, 2020).
